Anti-infective test results gathered from many reports (values: NIAID ChemDB through PubChem).

All rows: growth or infection tests; organism: Hepatitis C virus; endpoint: EC50

Two numbers with a dash give a range or band. ECn: concentration that inhibits the pathogen or its effect by n%. Neighbouring rows are from separate reports. Blank or dashed fields: not listed here.

compound | strain | mutations | cells | read by | result
Fc1ccccc1-c1nc2ccn(Cc3ccc(-c4ccc(C(F)(F)F)cc4C(F)(F)F)nn3)cc-2n1 | GT1b | - | 1C | luciferase | 0.0027 µM
CCN(CC(=O)NC1CCCCC1)C(=O)CCN1C(=O)[C@H](C)C2CC[C@H](C)C3CCC4(C)OO[C@]32C1O4 | - | - | Huh 5-2 | replicon | 8 µM
NC(=O)c1nn(Cc2cccc(N)c2)c2ccccc12 | J399EM | - | Huh7.5.1 | fluorescence | 5–10 µM
O=C1OC2(c3ccc(O)cc3Oc3cc(O)ccc32)c2c1c(-c1ccccc1)c(-c1ccccc1)c(-c1ccccc1)c2-c1ccccc1 | JFH-1 | - | Huh7-1 | PCR | 13.2 µM
CC[C@@H]1C[C@]1(NC(=O)[C@@H]1C[C@@H](Oc2cc(-c3csc(NC(C)C)n3)nc3c(Cl)c(OCCN4CCOCC4)ccc23)CN1C(=O)[C@@H](NC(=O)OC1C[C@@H]2C[C@@H]2C1)C(C)(C)C)C(=O)O | GT3a | P89L K583E | 1C | luciferase | 2.039 µM
CNC(=O)c1c(-c2ccc(F)cc2)oc2cc(N(CCO)S(C)(=O)=O)c(C3CC3)cc12 | - | - | HuH6 | PCR | >33 µM
C[C@@]1(O)[C@H](O)[C@@H](CO)O[C@H]1n1cnc2c(N)ncnc21 | genotype 1b | Y93H+V153M+M202L+M265V | Huh7.5 | luciferase / reporter gene | 0.0241 µM
COc1ccc2c(O[C@@H]3C[C@H]4C(=O)N[C@]5(C(=O)NS(=O)(=O)C6CC6)C[C@H]5/C=C\CCCCN(C)C(=O)[C@@H]4C3)cc(-c3nc(C(C)C)cs3)nc2c1C | JCH4 | - | Huh7.5 | antigen | 0.116 µM
C[C@H](Br)C(=O)c1ccc2cc(Br)c3ccccc3c2c1 | sg1a (H77) | - | Huh7-1 | PCR | 9.9 µM
COc1ccc2c(O[C@@H]3C[C@H]4C(=O)N[C@]5(C(=O)O)C[C@H]5/C=C\CCCCC[C@H](NC(=O)OC5CCCC5)C(=O)N4C3)cc(-c3csc(NC(C)C)n3)nc2c1 | GT3a | P89L K583E | 1C | luciferase | 0.347 µM
CCCCN(CC(=O)NCc1ccccc1)C(=O)CCN1C(=O)[C@H](C)C2CC[C@H](C)C3CCC4(C)OO[C@]32C1O4 | - | - | Huh 5-2 | replicon | 4 µM
CC(=O)Nc1ccc(-c2ccc(Cl)cc2)c(COc2ccc(-c3nc4cc(C(=O)O)ccc4n3C3CCCCC3)cc2)c1 | 1a | - | Huh7 | luciferase | 1.624 µM
CCC[C@H](NC(=O)[C@@H]1[C@H]2CCC[C@H]2CN1C(=O)[C@@H](NC(=O)[C@@H](NC(=O)c1cnccn1)C1CCCCC1)C(C)(C)C)C(=O)C(=O)NC1CC1 | - | - | Huh 9-13 | PCR | >24 µM
COC(=O)c1ccc(C(=O)Nc2cccc(Cn3nc(C(N)=O)c4ccccc43)c2)cc1 | J399EM | - | Huh7.5.1 | fluorescence | 0.04 µM
COCCN(CC(=O)NCc1ccccc1)C(=O)CCN1C(=O)[C@H](C)C2CC[C@H](C)C3CC[C@]4(C)OO[C@]32C1O4 | - | - | Huh 5-2 | replicon | 6 µM
C[C@@]1(O)[C@H](O)[C@@H](CO)O[C@H]1c1ccc2c(N)ncnn12 | GT5a | - | Huh7.5 | PCR | 0.82 µM
C[C@H]1CCC2[C@@H](C)C(=O)N(CCC(=O)N(CC=O)CC(=O)NCc3ccccc3)C3O[C@]4(C)CCC1[C@@]23OO4 | - | - | Huh 5-2 | replicon | >70 µM
CC(C)OC(=O)[C@H](C)N[P@](=O)(OC[C@H]1O[C@@](C#N)(c2ccc3c(N)ncnn23)[C@](C)(O)[C@@H]1OC(=O)C(C)C)Oc1ccccc1 | 3a S52 | - | Huh7 replicon | luciferase | 0.048 µM
C[C@@]1(O)[C@H](O)[C@@H](CO)O[C@H]1n1cnc2c(N)ncnc21 | - | - | JFH1 | luciferase | 0.7987 µM
CC1CCC(C(=O)N(c2cc(C#CC(C)(C)C)sc2C(=O)O)C2CCC(O)CC2)CC1 | GT1b | - | Huh7-Lunet | luciferase | 0.011 µM
CNC(=O)c1c(-c2ccc(F)cc2)oc2cc(N(CCO)S(C)(=O)=O)c(C3CC3)cc12 | GT3a | P89L K583E | 1C | luciferase | 0.0039 µM
C[C@@]1(O)[C@H](O)[C@@H](CO)O[C@H]1n1cnc2c(N)ncnc21 | 2a JFH-1 | - | Huh7 replicon | luciferase | 0.27 µM
C=C[C@@H]1C[C@]1(NC(=O)[C@@H]1C[C@@H](Oc2nccc3ccc(Br)cc23)CN1C(C)=O)C(=O)NS(=O)(=O)C1CC1 | 1b D168A | - | - | luciferase | >3 µM
C[C@H]1C(OCc2ccc(CO)cc2)OC2OC3(C)CCC4[C@H](C)CCC1[C@@]24OO3 | JFH-1/CS-N6 | - | Huh7.5.1 | PCR | 26 µM
NC(=O)c1ncn([C@@H]2O[C@H](CO)[C@@H](O)[C@H]2O)n1 | - | - | HuH6 | - | >33 µM
CCC[C@H](NC(=O)[C@@H]1[C@H]2CCC[C@H]2CN1C(=O)[C@@H](NC(=O)[C@@H](NC(=O)c1cnccn1)C1CCCCC1)C(C)(C)C)C(=O)C(=O)NC1CC1 | JCH4 | - | Huh7.5 | antigen | 0.778 µM
Cc1cc(N2CCOCC2)nc2ccc(Cc3ccc4nc(N5CCOCC5)cc(C)c4c3)cc12 | sg2a (JFH) | - | Huh7-1 | PCR | 5.5 µM
C[C@@]1(O)[C@H](O)[C@@H](CO)O[C@H]1n1cnc2c(N)ncnc21 | GT-1b Con1 | - | Huh7-Lunet | luciferase | 0.561 µM
NC(=O)c1nn(Cc2cccc(NC(=O)c3ccc(F)cc3)c2)c2ccccc12 | J399EM | - | Huh7.5.1 | fluorescence | 0.013 µM
CN(C)c1ccccc1CN1CCCN(Cc2ccccc2N(C)C)C1c1ccncc1 | JFH-1 | - | Huh7-1 | PCR | 1.5 µM
CNC(=O)c1c(-c2ccc(F)cc2)oc2cc(N(CCO)S(C)(=O)=O)c(C3CC3)cc12 | 4a | - | Huh7 | luciferase | 0.0162 µM
NC(=O)c1nn(Cc2cccc(NC(=O)c3ccc([N+](=O)[O-])cc3)c2)c2ccccc12 | J399EM | Luciferase reporter gene | Huh7.5.1 | luciferase / replicon | 0.024 µM

2 of the rows above, restated:

| compound | strain | mutations | cells | read by | result |
|---|---|---|---|---|---|
| C[C@H]1CCC2[C@@H](C)C(=O)N(CCC(=O)N(CC=O)CC(=O)NCc3ccccc3)C3O[C@]4(C)CCC1[C@@]23OO4 | - | - | Huh 5-2 | replicon | >70 µM |
| CC1CCC(C(=O)N(c2cc(C#CC(C)(C)C)sc2C(=O)O)C2CCC(O)CC2)CC1 | GT1b | - | Huh7-Lunet | luciferase | 0.011 µM |